Human monoclonal antibodies against the spike receptor-binding domain (heavy:light variable regions). IC50 against pseudoviruses bearing the spike of naturally observed variants; lower = stronger; >10 µg/ml means not reached at the top dose. No active / inactive call. The stated detection limit is 0.0005 µg/ml; values near or below 0.001 µg/ml lie at the floor of the assay.
B1: BD57-0408 (protein)
chain 1: EVQLVESGGGLVQPGRSLRLSCAVSGFTFDDYAMHWVRQAPGKGLEWVSGVSWNSGTIGYADSVKGRFIIIRDNSKNSLYLHMKSLRVEDTAFYYCAKDVGRGFEGYSDKYGLDVWGQGTTVTVSS
chain 2: QSALTQPASVSGSPGQSITISCTGSSSDVGGYKYVSWYQQHPGKVPKLMIYDVSSRPSGISNRFSGSKAGNTASLTISGLRAEDEADYYCSSYTSSSIVIFGGGTKLTVL
B2: BD57-0411 (protein)
chain 1: EVQLVESGGGVVQPGGSLRLSCEASGFTFDDYAMHWVRQPPGKGLQWVSLISGDGSSTNYGDSVKGRFTISRDNSKTSLYLQMNNVRTEDTAIYYCAKDFGDPVPAAMRWYYFDYWGQGTLVTVSS
chain 2: QSVLTQPPSASGTPGQRVTISCSGSSSNIGRNYVFWYQHFPGTGPKLLIYRNNQRPSGVPERFSGSKSGTSASLAISGLRSEDEADYYCAAWDDSLSGSWVFGGGTKLTVL
B3: BD57-0402 (protein)
chain 1: QVQLVQSGPEVRKPGASVKVSCKPSGYIFTNYYLHWVRQAPGQGLEWMGIINPRGGSPDYAQKFQGRVSMTRDMSTSTVYMELRSLTSDDTAVYYCSRGNRVTVSGVDFWGQGTLVTVSS
chain 2: QTVVTQEPSLTVSPGGTVTLTCASSAGPVTDEFFPNWFQQKPGHAPTTLIYSTTNKHSWTPARFSGSLLGGKAALTLSRVQPEDEADYFCLLYFGGAWVFGGGTKVTVL
B4: BD57-0403 (protein)
chain 1: EVQLVESGGGLVQPGGSLRLSCAASGFTFSNYDMHWVRQVPGKGLDWVSVIGTAGDTYYPDSVKGRFAISRENAKNSLFLQMNNLRAEDTAVYYCARAYYDTSGLYLAFDNWGQGTLVTVSS
chain 2: DIQMTQSPSSLSASIGDRVTITCRASQSVGSYLNWYQQKPGKAPKLLIYAASSLLSGVSSRFSGSGSGTDFTLTISSLQPEDFATYYCQQSYSTLALTFGGGTKVEIK
B5: BD55-2413 (protein)
chain 1: EVQLVQSGAEVKKPGESLKISCQGSGYNFANYWIGWVRQMPGKGLEWMGIIYPDDSDTRYSPTFRGQVTISADKSISTAYLQWSSLKASDTAMYYCARRGWDGYTSGTHYIGPVDYWGQGTLATVSS
chain 2: QSALTQPASVSGSPGQSITISCTGTSSDVGGYNFVSWYQHHPGKAPKLMIYDVTTRPSGISTRFSGSKSGNTASLTISGLQAEDEADYYCGSYTSSSILGVFGGGTKLTVL
B6: DH1064 (protein)
chain 1: QVQLVESGGGVVQPGRSLRLSCTASGFTFSQYGMHWVRQAPGKGLEWVAGMSYDGNDKNYLDSVKGRFSISRDDSKSTQYLQMNSLRAEDTAVYYCAKKGSPYCGVDCYKGYFDYWGQGILVIVSS
chain 2: DIQMTQSPSSLSASVGDRVTITCQASHDINKYLSWYQHKPGKAPKIMTSDASNLEAGVPSRFSGGGSGTDFTLTINGLQPEDFATYYCQQYDRLPITFGQGTRLDIK
B7: DH1073 (protein)
chain 1: QVQLVQSGAEVRKPGASVKVSCKASGYTFTDYYIHWVRQAPGQGLEWMGIINPEAGSTTSAQRFQGRLIMTTDTSASTVYMELNSLTSADTAVYYCARDYFLIPAANTMEVWGQGTTVTVSS
chain 2: EIVLTQSPDTLSLSPGERATLSCRASQSVGTYLAWFQQKPGQPPRLLIYDASNRATGIPARFGGSGSGTDFTLTISSLEPEDFAVYYCQQRSNWPRTWTFGQGTKVEIK
B8: BG1-24 (protein)
chain 1: QVQLVQSGAEVKKPGSSVKVSCKASGGTFSSYAISWVRQAPGQGLEWMGRIISMFGIANNAQKFQGRLTITADTSTSTAYMELSSLRSEDTAVYYCARGPYYYDSGGYYLDYWGQGTLVTVSS
chain 2: EIVLTQSPGTLSLSPGERATLSCRASQSVGSGYLAWYQQRPGQAPRLLIYGASSRATGIPDRFSGSGSGTDFTLTISRLEPEDFAVYYCQQYAGSPRTFGQGTRLEIK
B9: DH1046 (protein)
chain 1: EVQLVESGGGMVQPGGSLRLSCAASGFTFNNYAMNWVRQAPGKGLEWVSAISGSGIRTYYAESVKGRVTISRDNSKSTLYLQMNSLRAEDTAVYYCAKDLFYDFWSGFDFGPGESFGMDVWGQGTTVTVSS
chain 2: DIQMTQSPSTLSASVGDRVNITCRVSQRITSWLAWYQQKPGKAPKVLISKTSSLEGGVPSRFSGSGSGTEFTLTISSLQPDDFATYYCQQYSEFSYTFGQGTKLEIK
B10: BD55-3151 (protein)
chain 1: VELVESGGGLVQPGGSLRLSCAASGFSFPNFWMHWVRQAPGKGLVWVSRIKSDGTATIYADSVKGRFSISRDNARNMLFLEMNSLKDDDTAVYYCVRDRGYYDISGNYYSAWFDPWGQGTQVTVAS
chain 2: SYFLTQPPSVSVAPGQTATITCEGNNIGDNSVHWYQQRPGQAPVVLLSDVRGRPSGIPGRISGSNSGNTATLTIARVAAGDEADYYCQVWDTTTDHPGGVFGGGTKLTVL
B11: BG10-19 (protein)
chain 1: EVQLVQSGAEVKKPGESLKISCKGSGYSFTSYWIGWVRQMPGKGLEWMGVIYPGDSDTRYSPSFQGQVTISADKSISTAYLQWSSLKASDTAMYYCARTQWGYNYGSHFFYMDVWGKGTTVTVSS
chain 2: QSVLTQPPSASGTPGQRVTISCSGSSSNIGSDHVYWYQQLPGTAPKLFIYRNNQRPSGVPDRFSGSKSGTSASLAISGLRSEDEADYYCAAWDASLSGYVFGTGTKVTVL
B12: BD57-0406 (protein)
chain 1: EVQLVQSGAEVKKPGESLKISCKASGYTFTNYWIGWVRQMPGKGLEWMGIIYPDDSDTRYSPSFQGQVTISADKSINTAYLQWGSLKASDTATYFCARHALPYCGGECYHEWFDPWGQGTLVTVSS
chain 2: SYELTQPLSVSVALGQTARITCGGNNIGDTNVHWYQQKPGQAPVRVIYRNSNRPSGIPERFSGSNSGNTATLTISRAQAGDEADYYCQVRDSNTGPVFGGGTKLTVL

Assays:
Test in all cases: pseudovirus neutralization IC50; higher = weaker neutralization
[1] = target: SARS-CoV-2 Omicron BA.1 spike pseudovirus
Experimental: (§1)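 Single-round VSV luciferase pseudovirus mixed with antibody dilutions for 1 h and put on Huh-7 cells for about a day; IC50 from the dose curve.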

[2] = target: SARS-CoV-2 Omicron BA.2 spike pseudovirus
Experimental: as §1

[3] = target: SARS-CoV-2 Omicron BA.2.75 spike pseudovirus
Experimental: as §1

[4] = target: SARS-CoV-2 Omicron BA.5 spike pseudovirus
Experimental: as §1

[5] = target: SARS-CoV-2 Omicron BQ.1.1 spike pseudovirus
Experimental: as §1

[6] = target: SARS-CoV-2 Omicron XBB spike pseudovirus
Experimental: as §1

[7] = target: SARS-CoV-2 early D614G spike pseudovirus
Experimental: as §1

Binder | pseudovirus neutralization IC50 [1] | pseudovirus neutralization IC50 [2] | pseudovirus neutralization IC50 [3] | pseudovirus neutralization IC50 [4] | pseudovirus neutralization IC50 [5] | pseudovirus neutralization IC50 [6] | pseudovirus neutralization IC50 [7]
B1 | 0.161 µg/mL | 0.172 µg/mL | 0.0913 µg/mL | 0.191 µg/mL | > 10 µg/mL | 3.42 µg/mL | 0.0445 µg/mL
B2 | 0.392 µg/mL | 0.187 µg/mL | 0.0552 µg/mL | > 10 µg/mL | > 10 µg/mL | > 10 µg/mL | 0.000601 µg/mL
B3 | 0.37 µg/mL | 0.348 µg/mL | 0.0745 µg/mL | 3.12 µg/mL | > 10 µg/mL | > 10 µg/mL | 0.00413 µg/mL
B4 | > 10 µg/mL | > 10 µg/mL | > 10 µg/mL | > 10 µg/mL | > 10 µg/mL | > 10 µg/mL | > 10 µg/mL
B5 | > 10 µg/mL | > 10 µg/mL | > 10 µg/mL | > 10 µg/mL | > 10 µg/mL | > 10 µg/mL | > 10 µg/mL
B6 | > 10 µg/mL | > 10 µg/mL | > 10 µg/mL | > 10 µg/mL | > 10 µg/mL | > 10 µg/mL | > 10 µg/mL
B7 | 6.01 µg/mL | 4.29 µg/mL | 5.34 µg/mL | 1.87 µg/mL | 2.39 µg/mL | 3.06 µg/mL | 1.25 µg/mL
B8 | > 10 µg/mL | > 10 µg/mL | > 10 µg/mL | > 10 µg/mL | > 10 µg/mL | > 10 µg/mL | 0.001 µg/mL
B9 | > 10 µg/mL | > 10 µg/mL | > 10 µg/mL | > 10 µg/mL | > 10 µg/mL | > 10 µg/mL | 0.79 µg/mL
B10 | > 10 µg/mL | > 10 µg/mL | > 10 µg/mL | > 10 µg/mL | > 10 µg/mL | > 10 µg/mL | > 10 µg/mL
B11 | > 10 µg/mL | > 10 µg/mL | > 10 µg/mL | > 10 µg/mL | > 10 µg/mL | > 10 µg/mL | 0.0031 µg/mL
B12 | 0.911 µg/mL | 1.47 µg/mL | 1.91 µg/mL | 3.6 µg/mL | 4.89 µg/mL | 4.04 µg/mL | 2.6 µg/mL
